Anti-infective test results gathered from many reports (values: NIAID ChemDB through PubChem).

Shared fields: whole-cell or culture tests; species: HIV-1; measure: EC50

An empty or dashed field is not shown.

compound,mutations,strain,cells,read by,conditions,value
Cc1ccc(C[C@@H](C)[C@@H](C)Cc2ccc(C)c(C)c2)cc1C,,,HeLa,single cycle / luminescence,pseudotyped,42 µM
CN1CCC(NC(=O)c2ccc(C3=NN4C(C(=O)c5ccc(F)cc5)Oc5ccccc5C4C3)cc2)CC1,,LAI,MT-4,GFP / reporter gene,,1–10 µM
COc1cnc(-n2cnc(C)n2)c2[nH]cc(C(=O)C(=O)N3CCc4c(cnn4-c4ccncn4)C3)c12,nef,,HeLa CD4,luciferase / single cycle,,<0.5 µM
N#Cc1cc(Cl)cc(Oc2c(Cl)ccc(OCc3[nH]nc4ncccc34)c2F)c1,,HXB2,MT-4,cytopathic effect / MTT / absorbance,10% FBS,0.008 µM
COc1ccc(-c2c(C(OC(C)C)C(=O)O)c(C)nc3ccc(Cl)cc23)cc1OC,,,C8166,luciferase / reporter gene,,<20 µM
O=C(NCCc1ccccn1)c1ccc(C2=NN3C(C(=O)c4ccc(F)cc4)Oc4ccccc4C3C2)cc1,,LAI,MT-4,GFP / reporter gene,,1–10 µM
Cc1nc2ccc(Cl)cc2c(-c2ccc(C(C)C)cc2)c1C(OC(C)C)C(=O)O,,,C8166,luciferase / reporter gene,,<20 µM
O=C(NCc1ccccn1)c1ccc(C2=NN3C(C(=O)c4ccc(Br)cc4)Oc4ccccc4C3C2)cc1,,LAI,MT-4,GFP / reporter gene,,1–10 µM
O=C1NC(=O)c2cc([N+](=O)[O-])c(Sc3c(Cl)cccc3Cl)cc21,,,HeLa,single cycle / luminescence,pseudotyped,170 µM
CC1(C)C(c2ccc(C(=O)O)cc2)=CC[C@]2(C)CN(c3ncc(Br)s3)CC=C12,Renilla luciferase reporter Gag P373S,NL4-3,MT-2,luciferase / luminescence,,0.27 µM
CCN(CC)CCNC(=O)c1ccc(C2=NN3C(C(=O)c4ccc(F)cc4)Oc4ccccc4C3C2)cc1,,LAI,MT-4,GFP / reporter gene,,1–10 µM
COC(=O)C(OC(C)(C)C)c1c(C)ccc(C2CC2C)c1-c1ccc2c(c1)CCCO2,,NL4-3,MT-4,ATP,,0.3 µM
Cc1cc(CNCC[C@@]23CC[C@]4(C)[C@H](CC[C@@H]5[C@@]6(C)CC[C@H](OC(=O)[C@H]7C[C@@H](C(=O)O)C7(C)C)C(C)(C)[C@@H]6CC[C@]54C)C2=C(C(C)C)C(=O)C3)n[nH]1,,92HT599,MT-2,p24 / ELISA,,<1 µM
CCCC(C(=O)O)c1c(C)nc2ccc(Br)cc2c1-c1ccc(C)cc1,,,C8166,luciferase / reporter gene,,<20 µM
CC(C)C1=C2[C@H]3CC[C@@H]4[C@@]5(C)CC[C@H](OC(=O)[C@H]6C[C@@H](C(=O)O)C6(C)C)C(C)(C)[C@@H]5CC[C@@]4(C)[C@]3(C)CC[C@@]2([C@@H](O)CNC[C@H]2CCCNC2)CC1=O,,92HT599,MT-2,p24 / ELISA,,<1 µM
CCCC(C(=O)O)c1c(OC)nc2ccc(Br)cc2c1-c1ccc(Cl)cc1,,,C8166,luciferase / reporter gene,,<20 µM
C=CCN(CC=C)C(=S)N=Nc1c(O)n(CC=C)c2ccccc12,,,H9/HIV-1 + H9,plaque count,chronic infection,2 µg/mL
O=C(NC1CCCC1)c1ccc(C2=NN3C(C(=O)c4ccc(C(F)(F)F)cc4)Oc4ccccc4C3C2)cc1,,LAI,MT-4,GFP / reporter gene,,<1 µM
CC(C)C1=C2[C@H]3CC[C@@H]4[C@@]5(C)CC[C@H](OC(=O)[C@H]6C[C@@H](C(=O)O)C6(C)C)C(C)(C)[C@@H]5CC[C@@]4(C)[C@]3(C)CC[C@@]2(CCNCC(C)(C)N)CC1=O,,92HT599,MT-2,p24 / ELISA,,<1 µM
CCCc1cc(=O)oc2c3c(c4c(c12)OC(C)(C)CC4)O[C@H](C)[C@@H](C)C3=O,RT-V108I,,,cytopathic effect / XTT,,>100 µM
CC(C)C1=C2[C@H]3CC[C@@H]4[C@@]5(C)CC[C@H](OC(=O)[C@H]6C[C@@H](C(=O)O)C6(C)C)C(C)(C)[C@@H]5CC[C@@]4(C)[C@]3(C)CC[C@@]2([C@@H](O)CNC(=O)C(C)(C)NC(=O)c2ccc(Cl)cc2OCCN2CCOCC2)CC1=O,,92HT599,MT-2,p24 / ELISA,,<1 µM
CC1(C)C(c2ccc(C(=O)O)cc2)=CC[C@]2(C)CN(C(=O)C3(c4ccccc4N)CCCC3)CC=C12,Renilla luciferase reporter Gag P373S,NL4-3,MT-2,luciferase / luminescence,,>3 µM
CN(C)CCCNC(=O)c1ccc(C2=NN3C(C(=O)c4ccc(F)cc4)Oc4ccccc4C3C2)cc1,,LAI,MT-4,GFP / reporter gene,,>10 µM
CCCC(C(=O)O)c1c(C)nc2ccc(Cl)cc2c1-c1ccc(CC)cc1,,,C8166,luciferase / reporter gene,,<20 µM
CSc1ccc(C(=O)C2Oc3ccccc3C3CC(c4ccc(C(=O)NC5CCCC5)cc4)=NN23)cc1,,LAI,MT-4,GFP / reporter gene,,<1 µM
[2H]C(CN)(NC(=O)c1ccc(Cl)cc1)C(=O)NC[C@H](O)[C@@]12CC[C@]3(C)[C@H](CC[C@@H]4[C@@]5(C)CC[C@H](OC(=O)[C@H]6C[C@@H](C(=O)O)C6(C)C)C(C)(C)[C@@H]5CC[C@]43C)C1=C(C(C)C)C(=O)C2,,92HT599,MT-2,p24 / ELISA,,<1 µM
Cc1ccc(-c2ccc(NC(=O)N3CCC4(CCO4)CC3)cc2)cc1,,,TZM-bl,luminescence,pseudotyped,>30 µM
CC(C)C1=C2[C@H]3CC[C@@H]4[C@@]5(C)CC[C@H](OC(=O)[C@H]6C[C@@H](C(=O)O)C6(C)C)C(C)(C)[C@@H]5CC[C@@]4(C)[C@]3(C)CC[C@@]2([C@@H](O)CN(CCN(C)C)C(=O)c2cncnc2)CC1=O,,92HT599,MT-2,p24 / ELISA,,<1 µM
CN(C(=O)c1ccc(C2=NN3C(C(=O)c4ccc(F)cc4)Oc4ccccc4C3C2)cc1)C1CCCCC1,,LAI,MT-4,GFP / reporter gene,,<1 µM
CCCCN1C(=O)N(Cc2ccc3[nH]nc(N)c3c2)[C@H](Cc2ccccc2)[C@H](O)[C@@H](O)[C@H]1Cc1ccccc1,PR-I84V,,MT-2,plaque count,,<0.39 µM
CCCOC(=O)C(C)(C)NP(=O)(CO[C@H](C)Cn1cnc2c(N)ncnc21)C(C#N)C#N,,,PBMC,RT activity / fluorescence,,>2.101 µM
CCc1ccc(-c2c(C(OC3CCCC3)C(=O)O)c(C)nc3ccc(Cl)cc23)cc1,,,C8166,luciferase / reporter gene,,<20 µM
Nc1ccn([C@H]2CC[C@@H](CO)O2)c(=O)n1,,RF,MOLT-4/8 + MOLT-4,MTT / p24,,0.048 µM
CN(C)CCCNC(=O)c1ccc(C2=NN3C(C(=O)c4ccc(Br)cc4)Oc4ccccc4C3C2)cc1,,LAI,MT-4,GFP / reporter gene,,1–10 µM
Cc1nc2ccc(Br)cc2c(-c2ccc(Cl)cc2)c1[C@H](OC(C)(C)C)C(=O)O,,,C8166,luciferase / reporter gene,,<20 µM

a–b is a range or a potency band. Rows are shuffled and stem from different studies. ECn: concentration that inhibits the pathogen or its effect by n%.